Compound potency records, mixed from different reports. Data source: NIAID ChemDB in PubChem.

All rows: cytotoxicity tests; cells: MT-4; measure: CC50

CCn is the concentration with n% toxicity to the cells. Rows are shuffled and stem from different studies. An empty or dashed field is not shown.

{"structure": "c1cc2ccc3ccc(CN4CCCNCCNCCCNCC4)nc3c2nc1CN1CCCNCCNCCCNCC1", "method": "MTT", "result": ">200 µg/mL"}
{"structure": "C[C@H]1[C@H](O)[C@H](C)[C@@]2(NC(=O)OC(C)(C)C)O[C@@H]1[C@@H]1O[C@@H]12", "method": "MTT", "result": ">440 µM"}
{"structure": "C1CCNCCCN(CCCN2CCCNCCCCNCCCNCCCNCCCNCCCCNCCC2)CCCNCCCCNCCCNCCCNCCCNC1", "result": "228 µM"}
{"structure": "COc1ccc(/C=N/NC(=O)c2csc(N3N=C(c4ccccc4)CC3c3ccc(Cl)cc3)n2)cc1O", "method": "MTT / absorbance", "result": "61.75 µM"}
{"structure": "COC(=O)c1ccc(NC(=O)CSc2nc3ncccc3n2-c2ccc(C3CC3)c3ccccc23)c(Br)c1", "method": "MTT", "result": "2.87 µM"}
{"structure": "CC(C)c1c(C(=O)O)cn(Cc2ccncc2)c1Sc1ccccc1", "method": "MTT", "result": "190 µM"}
{"structure": "COc1ccccc1C(=O)N1CCC(NC(=O)c2cc(O)c(O)c(O)c2)CC1", "method": "MTT", "result": "147.2 µM"}
{"structure": "COC(=O)[C@@H](NC(=O)COc1ccc2ccccc2c1)C(C)C", "method": "MTT", "result": "42 µg/mL"}
{"structure": "CCC(C)Oc1cc(N)nc(Sc2ccccc2OC)n1", "result": "71 µM"}
{"structure": "O=c1[nH]cnc2c1ncn2[C@H]1CC[C@@H](CO)O1", "method": "MTT", "result": ">212 µM"}
{"structure": "O=C(N/N=C/c1ccccc1Cl)c1csc(N2N=C(c3ccccc3)CC2c2ccc(Cl)cc2)n1", "method": "MTT / absorbance", "result": ">125 µM"}
{"structure": "Cc1cc(C)cc(C(=O)c2cccnc2Nc2ccncc2)c1", "method": "MTT", "result": "32.33 µM"}
{"structure": "CC(=O)N1CCC(NC(=O)c2cc(O)c(O)c(O)c2)CC1", "method": "MTT", "result": "42.6 µM"}
{"structure": "O=c1cc(Cc2ccccc2)nc(OC2CCCC2)[nH]1", "result": "466 µM"}
{"structure": "Cc1c(Sc2ccccc2)n(COCCO)c(=O)[nH]c1=O", "method": "MTT", "result": "405 µM"}
{"structure": "O=c1[nH]cnc2c1ncn2[C@H]1CC[C@@H](CO)O1", "result": "60 µM"}
{"structure": "COc1cc(/C=N/NC(=O)c2csc(N3N=C(c4ccccc4)CC3c3ccc(Cl)cc3)n2)ccc1O", "method": "MTT / absorbance", "result": "60.1 µM"}
{"structure": "Cc1cc(C)cc(C(=O)c2cccnc2Oc2ccc(C=O)cc2)c1", "method": "MTT", "result": "33.65 µM"}
{"structure": "CNNC(=O)c1cn(Cc2ccncc2)c(Sc2cc(Cl)cc(Cl)c2)c1C(C)C", "method": "MTT", "result": "184 µM"}
{"structure": "C1CCNCCCN(CCCN2CCCNCCCNCCC2)CCCNCCCCNCCCN(CCCN2CCCNCCCNCCC2)CCCNC1", "result": "302 µM"}
{"structure": "COc1ccc(S(=O)(=O)N2CCC(NC(=O)c3cc(O)c(O)c(O)c3)CC2)cc1", "method": "MTT", "result": "130.5 µM"}
{"structure": "Cc1cc(C)cc(C(=O)c2cccnc2Oc2ccccc2)c1", "method": "MTT", "result": "20.72 µM"}
{"structure": "N#Cc1ccc(Nc2nccc(Oc3cc4c(cc3Br)c(=O)c(C(=O)O)cn4C3CC3)n2)cc1", "method": "MTT", "result": "14.99 µM"}
{"structure": "C=CCn1c(C(=O)c2cccc3ccccc23)c(CC)c(=O)[nH]c1=O", "method": "MTT", "result": "39.22 µM"}
{"structure": "Cc1cc(C)cc(C(=O)c2cccnc2Nc2ccc(C(F)(F)F)cc2)c1", "method": "MTT", "result": "106 µM"}
{"structure": "C[C@@H]1[C@@H]2O[C@]3(NC(=O)OC(C)(C)C)[C@@H](C)[C@H]1O[C@H]2[C@@H]3O", "method": "MTT", "result": ">88 µM"}
{"structure": "CC(C)(C)n1cc(C(=O)O)c(=O)c2cc(I)c(Oc3ccnc(Nc4ccc(C#N)cc4)n3)cc21", "method": "MTT", "result": "13.4 µM"}
{"structure": "Cc1cn([C@H]2C[C@H](N=[N+]=[N-])[C@@H](CO)O2)c(=O)[nH]c1=O", "method": "MTT", "result": ">1 µg/mL"}
{"structure": "Cc1cc(C)cc(S(=O)(=O)c2c(C(N)=O)[nH]c3ccc(Cl)cc23)c1", "method": "MTT", "result": "12 µM"}
{"structure": "O=C(N/N=C/c1ccc(Cl)cc1O)c1csc(N2N=C(c3ccccc3)CC2c2ccc(Cl)cc2)n1", "method": "MTT / absorbance", "result": "1.35 µM"}
{"structure": "CCC(C)Oc1cc(N)nc(S(=O)(=O)c2ccccc2)n1", "result": "90 µM"}
{"structure": "CC(C)(C)c1ccc(S(=O)(=O)N2CCC(NC(=O)c3cc(O)c(O)c(O)c3)CC2)cc1", "method": "MTT", "result": "131 µM"}
{"structure": "O=C(CSc1nc2ncccc2n1-c1ccc(C2CC2)c2ccccc12)Nc1ccc(C(=O)O)cc1Cl", "method": "MTT", "result": "1.12 µM"}
{"structure": "O=c1[nH]cnc2c1ncn2[C@H]1CC[C@@H](CO)O1", "method": "MTT", "result": "≥529 µM"}
{"structure": "Cc1cc(C#N)cc(C)c1Oc1nc(Nc2ccc(C#N)cc2)nc(N)c1Br", "method": "MTT", "result": "2.46 µM"}
{"structure": "CC(C)Oc1nc(Cc2ccccc2)cc(=O)[nH]1", "result": "646 µM"}
{"structure": "CCC(C)Oc1cc(N)nc(Sc2ccc(Cl)cc2N)n1", "result": "88 µM"}
{"structure": "C[C@H]1[C@@H]2O[C@]3(NC(=O)OC(C)(C)C)[C@@H](C)[C@H]1O[C@H]2[C@@H]3I", "method": "MTT", "result": ">63 µM"}
{"structure": "Cc1cc(C)cc(C(=O)c2cccnc2Nc2ccc(S(C)(=O)=O)cc2)c1", "method": "MTT", "result": "98.17 µM"}
{"structure": "C[C@H]1[C@@H]2O[C@]3(NC(=O)OC(C)(C)C)[C@@H](C)[C@H]1O[C@H]2[C@@H]3Br", "method": "MTT", "result": ">72 µM"}
{"structure": "C1CCNCCCNCCCNCCCN(CCC[N+]2(CCCN3CCCNCCCNCCCNCCCCNCCCNCCCNCCC3)CCCNCCCNCCCNCCCCNCCCNCCCNCCC2)CCCNCCCNCCCNC1", "result": "8.6 µM"}
{"structure": "CCC(C)Oc1cc(=O)[nH]c(S(=O)(=O)c2cccc(C)c2)n1", "result": "70 µM"}
{"structure": "C1CCNCCCNCCCN(CCCN2CCCNCCCNCCC2)CCCNCCCNC1", "result": "493 µM"}
{"structure": "C[C@@H]1[C@H](O)[C@H](C)[C@@]2(NC(=O)OC(C)(C)C)O[C@@H]1[C@H]1O[C@H]12", "method": "MTT", "result": ">440 µM"}
{"structure": "CCN(C)C(=O)Oc1nsnc1-c1c(Cl)cccc1Cl", "result": "29 µM"}
{"structure": "CC(C)c1c(C(=O)c2cccc3ccccc23)n(C/C=C/c2ccccc2)c(=O)[nH]c1=O", "method": "MTT", "result": "21.23 µM"}
{"structure": "O=C(N/N=C/c1cc([N+](=O)[O-])ccc1Cl)c1csc(N2N=C(c3ccccc3)CC2c2ccc(Cl)cc2)n1", "method": "MTT / absorbance", "result": ">125 µM"}
{"structure": "C1CNCCCN(CCCN2CCNCCC[N+](CCCN3CCCNCCCNCCC3)(CCCN3CCCNCCCNCCC3)CCCNCC2)CCCNC1", "result": "298 µM"}
{"structure": "Cc1cn([C@H]2C[C@H](N=[N+]=[N-])[C@@H](CO)O2)c(=O)[nH]c1=O", "method": "MTT", "result": "63 µg/mL"}
{"structure": "C1CCNCCCN(CCC[N+]2(CCCN3CCCNCCCCNCCCNCCCNCCCNCCCCNCCC3)CCCNCCCCNCCCNCCCNCCCNCCCCNCCC2)CCCNCCCCNCCCNCCCNCCCNC1", "result": "6.9 µM"}
{"structure": "COC(=O)[C@H](CCSC)NC(=O)COc1ccc2ccccc2c1", "method": "MTT", "result": ">100 µg/mL"}
{"structure": "CC(C)c1c(COC(N)=O)cn(Cc2ccncc2)c1Sc1cc(Cl)cc(Cl)c1", "method": "MTT", "result": ">200 µM"}
{"structure": "Cc1cc(C#N)cc(C)c1Oc1nc(Nc2ccc(C#N)cc2)nc(N)c1Br", "method": "MTT", "result": "14.24 µM"}
{"structure": "CCC(NC(=O)c1ccc(NC(=O)CSc2nc3ncccc3n2-c2ccc(C3CC3)c3ccccc23)c(Cl)c1)C(=O)O", "method": "MTT", "result": "0.55 µM"}
{"structure": "NNC(=O)c1csc(N2N=C(c3ccccc3)CC2c2ccc(Cl)cc2)n1", "method": "MTT / absorbance", "result": ">125 µM"}
{"structure": "CCCCn1cc(C(=O)O)c(=O)c2cc(I)c(Oc3ccnc(Nc4ccc(C#N)cc4)n3)cc21", "method": "MTT", "result": "3.23 µM"}
{"structure": "CC(C)c1c(C(C)O)cn(Cc2ccncc2)c1Sc1cc(Cl)cc(Cl)c1", "method": "MTT", "result": ">200 µM"}
{"structure": "CS(=O)(=O)N1CCC(NC(=O)c2cc(O)c(O)c(O)c2)CC1", "method": "MTT", "result": "42.4 µM"}
{"structure": "COC(=O)[C@H](Cc1ccc(O)cc1)NC(=O)COc1ccc2ccccc2c1", "method": "MTT", "result": "65 µg/mL"}
{"structure": "CCC(C)Oc1nc(Sc2ccccc2)cc(=O)[nH]1", "result": "147 µM"}
{"structure": "CC(C)(C)n1cc(C(=O)O)c(=O)c2cc(Br)c(Oc3ccnc(Nc4ccc(C#N)cc4)n3)cc21", "method": "MTT", "result": "23.58 µM"}
{"structure": "Cc1cc(C)cc(C(=O)c2cccnc2Oc2ccc(C#N)cc2)c1", "method": "MTT", "result": "31.61 µM"}
{"structure": "c1cc(CN2CCCNCCNCCCNCC2)nc(CN2CCCNCCNCCCNCC2)c1", "method": "MTT", "result": ">500 µg/mL"}
{"structure": "O=C(N/N=C/c1ccc(O)cc1)c1csc(N2N=C(c3ccccc3)CC2c2ccc(Cl)cc2)n1", "method": "MTT / absorbance", "result": "17.75 µM"}
{"structure": "N#Cc1ccc(Nc2nccc(Oc3cc4c(cc3Br)c(=O)c(C(=O)O)cn4C3CCCCC3)n2)cc1", "method": "MTT", "result": "3.59 µM"}
{"structure": "COc1nc(Cc2ccccc2)c(C)c(=O)[nH]1", "result": "517 µM"}
{"structure": "Cc1cn([C@H]2C[C@H](N=[N+]=[N-])[C@@H](CO)O2)c(=O)[nH]c1=O", "result": "247 µM"}

The last 9 rows once more:

structure	method	result
COC(=O)[C@H](Cc1ccc(O)cc1)NC(=O)COc1ccc2ccccc2c1	MTT	65 µg/mL
CCC(C)Oc1nc(Sc2ccccc2)cc(=O)[nH]1	-	147 µM
CC(C)(C)n1cc(C(=O)O)c(=O)c2cc(Br)c(Oc3ccnc(Nc4ccc(C#N)cc4)n3)cc21	MTT	23.58 µM
Cc1cc(C)cc(C(=O)c2cccnc2Oc2ccc(C#N)cc2)c1	MTT	31.61 µM
c1cc(CN2CCCNCCNCCCNCC2)nc(CN2CCCNCCNCCCNCC2)c1	MTT	>500 µg/mL
O=C(N/N=C/c1ccc(O)cc1)c1csc(N2N=C(c3ccccc3)CC2c2ccc(Cl)cc2)n1	MTT / absorbance	17.75 µM
N#Cc1ccc(Nc2nccc(Oc3cc4c(cc3Br)c(=O)c(C(=O)O)cn4C3CCCCC3)n2)cc1	MTT	3.59 µM
COc1nc(Cc2ccccc2)c(C)c(=O)[nH]1	-	517 µM
Cc1cn([C@H]2C[C@H](N=[N+]=[N-])[C@@H](CO)O2)c(=O)[nH]c1=O	-	247 µM